# Measurements published in US20260256822A1, “ENTRY-MODULATING AGENTS AND USES THEREFOR” (priority 2022, published 2026).
# Molecular target: PvCyRPA (Plasmodium vivax, UniProt A5K678, A187P/D259E/E126K/E159D/E86Q/G127E/G69A/H95N/K131E/K185E/K93E/Q142K/R122K/T90K)
# Assay: SPR binding of drugs to recombinant PvCyRPA
# Settings: Table 12, PvCyRPA
row,Compound,Kd [nM]
1,"CC(O)C(=O)O.CCOc1ccc2nc3cc(N)ccc3c(N)c2c1 (racemic) [RIVANOL, 6,9-Diamino-2-ethoxyacridine-DL-lactate monohydrate]",6.98
2,CCC(C)[C@H]1O[C@]2(CC[C@@H]1C)C[C@@H]1C[C@@H](C/C=C(\C)[C@@H](O[C@H]3C[C@H](OC)[C@@H](O[C@H]4C[C@@H](OC)[C@H](O)[C@@H](C)O4)[C@H](C)O3)[C@@H](C)/C=C/C=C3\CO[C@@H]4[C@H](O)C(C)=C[C@@H](C(=O)O1)[C@]34O)O2 (some centres unmarked) [Ivermectin],161
